Literature values as cited in article PMC2742502 (Journal of immunology (Baltimore, Md. : 1950), 2008).

Tested on: T cells from healthy donors
Conditions: HLA-A0201 restricted, ref M. Wolfl, unpublished data; cited from earlier work

## HIVgagp17 76–84: HLA-A0201 restricted epitope (SLYNTVATL; Matrix protein p17; UniProt P04591 77-85, looked up, fragment)
  induction of T cell responses: able to induce T-cell responses against this epitope
